Results of unrelated studies side by side (data: NIAID ChemDB).

Common to all: whole-cell or culture tests; agent: HIV-2; cell line: CEM; measure: EC50

Rows are shuffled and stem from different studies.

Cc1cc(S(=O)(=O)CCc2cccc3ccccc23)cc(=O)o1 ; strain or isolate: ROD ; method: MTT ; value: >2 µM
Nc1ncnc2c1ncn2CCOCP(=O)(O)O ; strain or isolate: ROD ; value: 6 µM
Nc1nc(NC2CCCC2)c2ncn(CCOCP(=O)(O)O)c2n1 ; strain or isolate: ROD ; method: cytopathic effect / MTT ; value: 1.75 µg/mL
Nc1ccn([C@H]2CC[C@@H](CO)O2)c(=O)n1 ; strain or isolate: ROD ; method: syncytia ; value: 0.013 µM
Cc1cn([C@@H]2O[C@H](CO[Si](C)(C)C(C)(C)C)[C@@H](O)[C@H]2O[Si](C)(C)C(C)(C)C)c(=O)n(CC(=O)O)c1=O ; strain or isolate: ROD ; method: syncytia ; value: >10 µM
O=c1[nH]cnc2c1ncn2[C@H]1CC[C@@H](CO)O1 ; strain or isolate: ROD ; method: syncytia ; value: 2.52 µg/mL
Cc1cn([C@@H]2O[C@H](COC(=O)c3ccccc3)[C@@H](O)[C@H]2OC(=O)c2ccccc2)c(=O)n(CC(=O)O)c1=O ; strain or isolate: ROD ; method: syncytia ; value: >50 µM
Nc1ncnc2c1ncn2CCOCP(=O)(O)O ; method: cytopathic effect / MTT ; value: 6 µM
Nc1nc2c(ncn2COCCOP2(=O)OCc3ccccc3O2)c(=O)[nH]1 ; strain or isolate: ROD ; method: syncytia ; value: >50 µM
Cc1cn([C@H]2C[C@H](N=[N+]=[N-])[C@@H](CO)O2)c(=O)[nH]c1=O ; strain or isolate: LAV-2 ; method: virus yield ; value: <0.1 µM
Cc1cn([C@@H]2O[C@H](CO[Si](C)(C)C(C)(C)C)C3(OS(=O)(=O)C=C3N)[C@H]2O[Si](C)(C)C(C)(C)C)c(=O)n(CC(=O)N[C@H](C(=O)OCc2ccccc2)C(C)C)c1=O ; strain or isolate: ROD ; method: syncytia ; value: >50 µM
O=c1[nH]c(=O)n([C@H]2C[C@H](O)[C@@H](CO)O2)cc1C(OCC(F)(F)F)OCC(F)(F)F ; method: p24 ; value: >100 µg/mL
Cc1cn([C@@H]2O[C@H](CO[Si](C)(C)C(C)(C)C)[C@@H](O[Si](C)(C)C(C)(C)C)[C@H]2O)c(=O)n(CCO)c1=O ; strain or isolate: ROD ; method: syncytia ; value: >50 µM
OB(O)c1ccc(F)cc1 ; strain or isolate: ROD ; method: syncytia ; value: >250 µM
Nc1ncnc2c1ncn2CCOCP(=O)(O)O ; strain or isolate: ROD ; method: syncytia ; value: 1.7 µg/mL
C=C(COCP(=O)(O)O)Cn1cnc2c(=O)[nH]c(N)nc21 ; strain or isolate: ROD ; value: 6 µM
Cc1cc(S(=O)(=O)CCc2cccc3ccccc23)c(Br)c(=O)o1 ; strain or isolate: ROD ; method: MTT ; value: >10 µM
Nc1ccn([C@H]2CC[C@@H](CO)O2)c(=O)n1 ; strain or isolate: ROD ; method: syncytia ; value: 0.01 µM
Cc1cn([C@H]2C[C@H](F)[C@@H](CO)O2)c(=O)[nH]c1=O ; strain or isolate: ROD ; method: syncytia ; value: 0.001 µg/mL
OB(O)c1ccccc1CN1CCSCC1 ; strain or isolate: ROD ; method: syncytia ; value: >50 µM
Cc1cn([C@H]2C=C[C@@H](CO[P@@]3(=O)OCc4cccc(-c5cccc6c5OC(C)(C)OC6)c4O3)O2)c(=O)[nH]c1=O ; strain or isolate: LAV-2 ; method: syncytia ; value: 0.4 µM
Cc1cn([C@H]2C=C[C@@H](CO)O2)c(=O)[nH]c1=O ; strain or isolate: ROD ; method: syncytia ; conditions: 4 d ; value: 0.78 µM
Nc1nc2c(ncn2COCCO)c(=O)[nH]1 ; strain or isolate: ROD ; method: syncytia ; value: >250 µM
Cc1cn([C@@H]2O[C@H](CO[Si](C)(C)C(C)(C)C)C3(OS(=O)(=O)C=C3N)[C@H]2O[Si](C)(C)C(C)(C)C)c(=O)n(CC(=O)N[C@@H](C)C(=O)O)c1=O ; strain or isolate: ROD ; method: syncytia ; value: 25 µM
C1CNCCNCCCN(CCCN2CCCNCCNCCCNCC2)CCNC1 ; strain or isolate: ROD ; method: antigen ; value: 0.37 µM
CC(=O)NC1=CS(=O)(=O)OC12[C@@H](COCc1ccccc1)O[C@@H](n1cc(C)c(=O)[nH]c1=O)[C@@H]2OC(C)=O ; strain or isolate: ROD ; method: syncytia ; value: >160 µM
Cc1cn([C@@H]2O[C@H](CO[Si](C)(C)C(C)(C)C)[C@@]3(OS(=O)(=O)C=C3N)[C@H]2O[Si](C)(C)C(C)(C)C)c(=O)[nH]c1=O ; strain or isolate: ROD ; method: syncytia ; value: >10 µM
Cc1ccc2c(c1)COP(=O)(OCCOCn1cnc3c(=O)[nH]c(N)nc31)O2 ; strain or isolate: ROD ; method: syncytia ; value: 30 µM
Nc1ncnc2c1ncn2CCOCP(=O)(O)O ; strain or isolate: ROD ; method: syncytia ; value: 6.6 µM
Nc1ccn([C@H]2CC[C@@H](CO)O2)c(=O)n1 ; strain or isolate: ROD ; method: syncytia ; value: 0.04 µg/mL
CN(C)CCNc1nc(N)nc2c1ncn2CCOCP(=O)(O)O ; strain or isolate: ROD ; method: cytopathic effect / MTT ; value: 2 µg/mL
Nc1cc(OCCOCP(=O)(O)O)nc(N)n1 ; strain or isolate: ROD ; method: syncytia ; value: 0.57 µg/mL
N#Cc1c(N)nc(N)nc1OCCOCP(=O)(O)O ; strain or isolate: ROD ; method: syncytia ; value: 4.5 µM
Cc1cn([C@H]2C[C@H](NC(N)=O)[C@@H](CO)O2)c(=O)[nH]c1=O ; strain or isolate: ROD ; method: cytopathic effect / MTT ; value: >100 µg/mL
Cc1cn([C@@H]2O[C@H](CO[Si](C)(C)C(C)(C)C)C3(OS(=O)(=O)C=C3N)[C@H]2O[Si](C)(C)C(C)(C)C)c(=O)n(C)c1=O ; strain or isolate: ROD ; method: syncytia ; value: >20 µM
Nc1ncnc2c1ncn2[C@@H]1C[C@H](O)[C@@H](O)[C@H]1O ; strain or isolate: ROD ; method: syncytia ; value: >0.16 µg/mL
O=c1[nH]c(=O)n([C@H]2C[C@H](F)[C@@H](CO)O2)cc1C(OCC(F)(F)F)OCC(F)(F)F ; method: p24 ; value: 35 µg/mL
Nc1nc2c(ncn2[C@H]2C=C[C@@H](CO)C2)c(=O)[nH]1 ; strain or isolate: ROD ; method: syncytia ; value: 0.17 µM
C[C@H](Cn1cnc2c(N)ncnc21)OCP(=O)(O)O ; strain or isolate: ROD ; method: syncytia ; value: 2.6 µM
C[C@H](C[n+]1c[nH]c2c(Nc3ccoc3)nc(N)nc21)OCP(=O)(O)O ; strain or isolate: ROD ; method: cytopathic effect / MTT ; value: 6 ± 5.7 µg/mL
COC(=O)[C@H](C)NP(=O)(OC[C@@H]1C=C[C@H](n2cc(C)c(=O)[nH]c2=O)O1)Oc1ccccc1 ; strain or isolate: ROD ; method: syncytia ; value: 0.1 µM
c1nc[nH]n1 ; strain or isolate: ROD ; method: cytopathic effect / MTT ; value: >100 µg/mL
Nc1nc(N)c(Cc2c(N)nc(N)nc2OCCOCP(=O)(O)O)c(OCCOCP(=O)(O)O)n1 ; strain or isolate: ROD ; method: syncytia ; value: 50 µM
Nc1nc(N)c(Br)c(OCCOCP(=O)(O)O)n1 ; strain or isolate: ROD ; method: syncytia ; value: 3.3 µg/mL
Cc1cc(N(Cc2cccc3ccccc23)C(=O)C(Cl)Cl)cc(=O)o1 ; strain or isolate: ROD ; method: MTT ; value: ≥10 µM
C[C@H](C[n+]1c[nH]c2c(NCCCCCCCC3CCCCC3)nc(N)nc21)OCP(=O)(O)O ; strain or isolate: ROD ; method: cytopathic effect / MTT ; value: 13 ± 6 µg/mL
OB(O)c1ccc(/C=N\NC(=S)Nc2ccccc2)cc1 ; strain or isolate: ROD ; method: syncytia ; value: ≥50 µM
CC(=O)OC[C@H]1O[C@@H](n2cc(C)c(=O)[nH]c2=O)C[C@@H]1N(C)OC(C)=O ; strain or isolate: ROD ; method: syncytia ; value: >250 µg/mL
Cc1cn([C@@H]2O[C@H](CO[Si](C)(C)C(C)(C)C(C)C)C3(OS(=O)(=O)C=C3N)[C@H]2O[Si](C)(C)C(C)(C)C)c(=O)n(C)c1=O ; strain or isolate: ROD ; method: syncytia ; value: >60 µM
Nc1nc(N)c2ncn(CC(OCCF)OCP(=O)(O)O)c2n1 ; method: cytopathic effect ; value: 40 µg/mL
Nc1nc(NCCc2ccccc2)c2ncn(CCOCP(=O)(O)O)c2n1 ; strain or isolate: ROD ; method: cytopathic effect / MTT ; value: 12.5 µg/mL
O=C(O)CCc1ccc(B(O)O)cc1 ; strain or isolate: ROD ; method: syncytia ; value: >250 µM
CN=C1CN=C(c2ccc[nH]2)c2cc(Cl)ccc2N1 ; strain or isolate: UC-1 ; method: antigen ; value: 0.1 µM
Cc1cn([C@@H]2O[C@H](CO[Si](C)(C)C(C)(C)C)[C@@H](O)[C@H]2O[Si](C)(C)C(C)(C)C)c(=O)n(CC(=O)ON)c1=O ; strain or isolate: ROD ; method: syncytia ; value: >2 µM
COC(=O)[C@@H](C)NP(=O)(OC[C@@H]1C=C[C@H](n2cc(C)c(=O)[nH]c2=O)O1)Oc1ccccc1 ; value: 2.5 µM
[N-]=[N+]=N[C@H]1C[C@H](n2cc(COCC(F)(F)F)c(=O)[nH]c2=O)O[C@@H]1CO ; method: p24 ; value: 3.1 µg/mL
Cc1cn([C@H]2C[C@H](N=[N+]=[N-])[C@@H](CO[Si](C)(C)C(C)(C)C)O2)c(=O)n(CC(=O)O)c1=O ; strain or isolate: ROD ; method: syncytia ; value: >50 µM

For reference, 7 entries again:

Cc1cn([C@@H]2O[C@H](CO[Si](C)(C)C(C)(C)C)[C@@H](O)[C@H]2O[Si](C)(C)C(C)(C)C)c(=O)n(CC(=O)ON)c1=O ; strain or isolate: ROD ; method: syncytia ; value: >2 µM
Cc1cn([C@@H]2O[C@H](CO[Si](C)(C)C(C)(C)C)[C@@]3(OS(=O)(=O)C=C3N)[C@H]2O[Si](C)(C)C(C)(C)C)c(=O)[nH]c1=O ; strain or isolate: ROD ; method: syncytia ; value: >10 µM
O=c1[nH]c(=O)n([C@H]2C[C@H](F)[C@@H](CO)O2)cc1C(OCC(F)(F)F)OCC(F)(F)F ; method: p24 ; value: 35 µg/mL
Nc1ccn([C@H]2CC[C@@H](CO)O2)c(=O)n1 ; strain or isolate: ROD ; method: syncytia ; value: 0.013 µM
Nc1nc(N)c(Cc2c(N)nc(N)nc2OCCOCP(=O)(O)O)c(OCCOCP(=O)(O)O)n1 ; strain or isolate: ROD ; method: syncytia ; value: 50 µM
O=c1[nH]cnc2c1ncn2[C@H]1CC[C@@H](CO)O1 ; strain or isolate: ROD ; method: syncytia ; value: 2.52 µg/mL
Cc1cn([C@H]2C[C@H](N=[N+]=[N-])[C@@H](CO)O2)c(=O)[nH]c1=O ; strain or isolate: LAV-2 ; method: virus yield ; value: <0.1 µM

ECn is the concentration giving n% inhibition of infection, replication or growth.